Anti-infective test results gathered from many reports (values: NIAID ChemDB through PubChem).

Shared fields: tests on isolated targets; agent: Toxoplasma gondii

Neighbouring rows are from separate reports. An empty or dashed field is not shown. Percent inhibition refers to the dose given; in toxicity tests it is the harm to the cells. ICn: concentration for n% inhibition.

| SMILES | target | dose | read by | strain | measure | result |
|---|---|---|---|---|---|---|
| COc1cc(OC)cc(N2C(N)=NC(N)=NC2(C)C)c1 | DHFR | - | - | - | IC50 | 16.4 µM |
| CC(Cc1coc2nc(N)nc(N)c12)c1ccc(-c2ccccc2)cc1 | Dihydrofolate reductase | - | - | - | IC50 | 7 µM |
| Nc1ccc(S(=O)(=O)c2ccc(N)cc2)cc1 | DHPS | - | - | - | Ki | 0.81 µM |
| Nc1nc(N)c2nc(Cc3ccc(Cl)c(Cl)c3)c(Cc3ccc(Cl)c(Cl)c3)nc2n1 | DHFR | - | - | - | IC50 | >28 µM |
| C/C(=C\c1coc2nc(N)nc(N)c12)c1cc(Cl)ccc1Cl | Dihydrofolate reductase | - | - | - | IC50 | 10 µM |
| Cc1noc(NS(=O)(=O)c2ccc(N)cc2)c1C | DHPS | - | - | - | Ki | 21 µM |
| COc1ccc2cc(C(C)Cc3coc4nc(N)nc(N)c34)ccc2c1 | Dihydrofolate reductase | - | - | - | IC50 | 28 µM |
| COc1cc(N(C)Cc2csc3nc(N)nc(N)c23)cc(OC)c1OC | DHFR | 10 µM | - | - | inhibition | <30% |
| CC(=O)Nc1ccc(C(=O)O)cc1 | DHPS | - | - | - | IC50 | 54 µM |
| CCCCCCCc1c(C)[nH]c2cc(OC)ccc2c1=O | Cytochrome c reductase | - | absorbance | 2F | IC50 | 0.0082 µM |
| CC(=O)Nc1ccc(C(=O)O)cc1 | DHPS | 10 µM | - | RH | inhibition | 22.7% |
| C/C(=C/c1coc2nc(N)nc(N)c12)c1ccc(-c2ccccc2)cc1 | Dihydrofolate reductase | - | - | - | IC50 | 0.3 µM |
| COc1cc(N2C(N)=NC(N)=NC2(C)C)c(OC)cc1Cl | DHFR | - | - | - | IC50 | >60 µM |
| Cc1[nH]c2ccccc2c(=O)c1-c1ccc(Oc2ccc(OC(F)(F)F)cc2)cc1 | Cytochrome c | - | absorbance | 2F | IC50 | 0.0306 µM |
| CC(Cc1coc2nc(N)nc(N)c12)c1ccccc1 | Dihydrofolate reductase | - | - | - | IC50 | 37 µM |

2 of the rows above, restated:

SMILES,target,dose,read by,strain,measure,result
Nc1ccc(S(=O)(=O)c2ccc(N)cc2)cc1,DHPS,-,-,-,Ki,0.81 µM
CC(=O)Nc1ccc(C(=O)O)cc1,DHPS,-,-,-,IC50,54 µM